The assay concerns the target GS-TAP-tagged Optn (human) (UniProt Q96CV9). Description: TAP of GS-tagged Optn from HEK-293 cells, LC-MSMS.

For the substance “E1B 55K [Human adenovirus type 5] (from UniProt P03243 1-496)”, the sequence coverage was 0.01 and the unique peptide counts worked out at 2.

These data come from US20140336126A1.
